Measured values from several laboratories, pooled; numbers as filed in NIAID ChemDB.

Shared fields: enzyme or target tests; agent: HIV-1; protein: Protease; endpoint: IC50

ICn is the concentration giving n% inhibition. a–b is a range or a potency band. Conditions beyond the fields shown may differ between rows. Blank or dashed fields: not listed here.

smiles,method,result
N[C@@H](CO)C(=O)N[C@@H](Cc1ccccc1)[C@H](O)C(=O)NCC1CCCCC1,,>1000 µM
O=C1C(C/C=C/c2ccccc2)(C/C=C/c2ccccc2)[C@@H]2COC[C@H]2C1(C/C=C/c1ccccc1)C/C=C/c1ccccc1,,70–100 µM
NC(=O)C[C@H](NC(=O)c1ccc2ccccc2n1)C(=O)N[C@@H](Cc1ccccc1)[C@@H](O)CN1CCC[C@H]1C(F)(F)F,,0.001 µM
C[C@H]1[C@H](C)CC[C@]2(C(=O)O)CC[C@]3(C)C(=CC[C@@H]4[C@@]5(C)CC[C@H](OC(=O)C(=O)O)C(C)(C)[C@@H]5CC[C@]43C)[C@H]12,HPLC,7 µM
CC(C)CCN(C[C@@H](O)[C@H](Cc1ccccc1)NC(=O)OCc1ccccc1)S(=O)(=O)C(F)(F)F,fluorescence,<10 µM
CCCCC1(CCc2cccc(NS(=O)(=O)c3ccc(C)cc3)c2)COC(=O)C(C(CC)c2cccc(NS(=O)(=O)c3ccc(C)cc3)c2)=C1O,,0.322 µM
Cc1c(O)cccc1C(=O)N[C@@H](Cc1ccccc1)C(=O)N(O)CC(=O)N1CCC[C@@H]1C(=O)NC(C)(C)C,HPLC,2.07 µM
C=C(C)[C@@H]1CC[C@]2(C(=O)O)CC[C@]3(C)[C@H](CC[C@@H]4[C@@]5(C)CC[C@H](O)C(C)(C)[C@@H]5CC[C@]43C)[C@@H]12,HPLC,9 µM
CC(C)(C)OC(=O)NN(Cc1ccc(F)cc1)C[C@H](O)[C@H](Cc1ccccc1)NC(=O)OCc1ccccc1,substrate cleavage,0.013 µM
C=CCc1ccc(O)c(-c2ccc(O)c(CC=C)c2)c1,FRET,120 µM
CC(C)(C)NC(=O)[C@@H]1[C@@H](c2ccccc2)CCN1C(=O)[C@@H](O)[C@H](Cc1ccccc1)NC(=O)[C@H](CC(N)=O)NC(=O)OCc1ccccc1,,<0.05 µM
COc1ccc(S(=O)(=O)N(CC(C)C)C[C@@H](O)[C@H](Cc2ccccc2)NC(=O)c2ccccc2S(C)(=O)=O)cc1,fluorescence,<10 µM
CC[C@@H](C)[C@H](NC(=O)COc1cccc2ccccc12)C(=O)N[C@@H](Cc1ccccc1)[C@H](O)C(=O)N1CSC[C@H]1C(=O)NC(C)(C)C,,<0.05 µM
C=CCc1ccc(O)c(-c2cc(CC=C)ccc2O)c1,FRET,800 µM
C[C@H]1[C@H](C)CC[C@]2(C(=O)O)CC[C@]3(C)C(=CC[C@@H]4[C@@]5(C)CC[C@H](OC(=O)CCC(=O)O)C(C)(C)[C@@H]5CC[C@]43C)[C@H]12,HPLC,6 µM
COc1ccc(S(=O)(=O)N(CC(C)C)C[C@@H](O)[C@H](Cc2ccccc2)NC(=O)c2cccnc2)cc1,fluorescence,0.067 µM
CC(C)c1nc(CN(C)C(=O)N[C@@H](C(=O)NN(Cc2ccccc2)C[C@H](O)[C@H](Cc2ccccc2)NC(=O)OCc2cncs2)C(C)C)co1,substrate cleavage,<0.0005 µM
CC(C)(C)NC(=O)[C@H]1CCCN1C(=O)[C@H](Cc1ccccc1)N(O)C(=O)[C@H](Cc1ccccc1)NC(=O)OCC1c2ccccc2-c2ccccc21,HPLC,0.144 µM
CC(C)CCN(C[C@@H](O)[C@H](Cc1ccccc1)NC(=O)OCc1ccccc1)S(=O)(=O)CCl,fluorescence,<10 µM
N[C@@H](Cc1ccccc1)C(=O)N[C@@H](CO)C(=O)N[C@@H](Cc1ccccc1)[C@@H](O)C(=O)NCC1CCCCC1,,>1000 µM
CC1(C)CC[C@]2(C(=O)O)CC[C@]3(C)C(=CCC4[C@@]5(C)CC[C@H](OC(=O)CCC(=O)O)C(C)(C)C5CC[C@]43C)C2C1,HPLC,4 µM
COc1ccc(S(=O)(=O)N(CC(C)C)C[C@@H](O)[C@H](Cc2ccccc2)NC(=O)c2ccccc2CS(C)(=O)=O)cc1,fluorescence,<1 µM
CCCCC1(CCc2cccc(NS(=O)(=O)c3ccc(OC)cc3)c2)COC(=O)C(C(CC)c2cccc(NS(=O)(=O)c3ccc(OC)cc3)c2)=C1O,,0.825 µM
Cc1c(O)cccc1C(=O)N[C@@H](Cc1ccccc1)C(=O)N(O)[C@@H](Cc1ccccc1)C(=O)N1CCC[C@@H]1C(=O)NC(C)(C)C,HPLC,0.89 µM
O=C1C(Cc2ccccc2)(Cc2ccccc2)[C@@H]2COC[C@H]2C1(Cc1ccccc1)Cc1ccccc1,,70–100 µM
C[C@H]1CC[C@H](C(F)(F)F)N1C[C@@H](O)[C@H](Cc1ccccc1)NC(=O)[C@H](CC(N)=O)NC(=O)c1ccc2ccccc2n1,,0.00002 µM
CCCCC1(CCc2cccc(NS(=O)(=O)c3ccc(C(F)(F)F)cn3)c2)COC(=O)C(C(CC)c2cccc(NS(=O)(=O)c3ccc(C(F)(F)F)cn3)c2)=C1O,,0.023 µM
NC(=O)C[C@H](NC(=O)OCc1ccccc1)C(=O)N[C@@H](Cc1ccccc1)[C@H](O)C(=O)N1CCC[C@H]1C(=O)NCC1CCCCC1,,~5 µM
CC(C)C(NC[C@H](O)[C@H](Cc1ccccc1)NC(=O)[C@@H](NC(=O)[C@H](Cc1cccc2ccccc12)CS(=O)(=O)C(C)(C)C)C(C)C)C(F)(F)F,,0.01 µM
CCCCC1(CCc2cccc(NS(=O)(=O)c3ccc(F)cc3)c2)COC(=O)C(C(CC)c2cccc(NS(=O)(=O)c3ccc(F)cc3)c2)=C1O,,0.229 µM
CC(C)c1nc(CN(C)C(=O)N[C@@H](C(=O)NN(Cc2cccc(O)c2)C[C@H](O)[C@H](Cc2ccccc2)NC(=O)OCc2cncs2)C(C)C)cs1,substrate cleavage,0.0005 µM
CC1(C)CC[C@]2(C)CC[C@]3(C)C(=CC[C@@H]4[C@@]5(C)CC[C@H](O)C(C)(C)[C@@H]5CC[C@]43C)[C@@H]2C1,HPLC,>100 µM
OC1C(C/C=C/c2ccccc2)(C/C=C/c2ccccc2)[C@@H]2COC[C@H]2C1(C/C=C/c1ccccc1)C/C=C/c1ccccc1,,70–100 µM
O=c1oc(-c2ccccc2)cc(O)c1SCCCc1ccccc1,,1.4 µM
CC(C)CCN(C[C@@H](O)[C@H](Cc1ccccc1)NC(=O)OCc1ccccc1)S(=O)(=O)c1ccccc1[N+](=O)[O-],fluorescence,<10 µM
CC[C@@H](C)[C@H](NC(=O)[C@@H]1CCCN1C(=O)[C@@H](O)[C@H](Cc1ccccc1)NC(=O)[C@H](CC(N)=O)NC(=O)CCc1ccccc1)C(N)=O,,~5 µM
CC(C)[C@H](NC(=O)[C@H](Cc1cccc2ccccc12)CS(=O)(=O)C(C)(C)C)C(=O)N[C@@H](Cc1ccccc1)[C@@H](O)CN1CCC[C@H]1C(F)(F)F,,0.005 µM
CC(C)c1nc(CN(C)C(=O)N[C@@H](C(=O)NN(Cc2ccccc2)C[C@H](O)[C@H](Cc2ccccc2)NC(=O)OCc2cncs2)C(C)C)cs1,substrate cleavage,<0.0005 µM
CC(C)[C@H](NC(=O)[C@H](Cc1cccc2ccccc12)CS(=O)(=O)C(C)(C)C)C(=O)N[C@@H](Cc1ccccc1)[C@@H](O)C(O)CN1CCC[C@H]1C(F)(F)F,,0.05 µM
CC(C)(C)OC(=O)NN(CC1CCOCC1)C[C@H](O)[C@H](Cc1ccccc1)NC(=O)OCc1ccccc1,substrate cleavage,0.036 µM
CC(C)(C)NC(=O)[C@H](Cc1ccccc1)NC(=O)CN(O)C(=O)[C@H](Cc1ccccc1)NC(=O)OCC1c2ccccc2-c2ccccc21,HPLC,0.93 µM
CC1(C)CC[C@]2(C(=O)O)CC[C@]3(C)C(=CC[C@@H]4[C@@]5(C)CC[C@H](O)C(C)(C)[C@@H]5CC[C@]43C)[C@@H]2C1,HPLC,8 µM
CCOC(=O)C1=CN(Cc2ccccc2)C2C(CO)(C3N(Cc4ccccc4)C=C(C(=O)OCC)[C@H](c4ccccc4)C23CO)[C@H]1c1ccccc1,,12.1 µM
C=CCc1ccc(O)c(-c2cc(C(O)C(C)O)ccc2O)c1,FRET,35 µM

For reference, 4 entries again:

{"smiles": "CC(C)(C)NC(=O)[C@@H]1[C@@H](c2ccccc2)CCN1C(=O)[C@@H](O)[C@H](Cc1ccccc1)NC(=O)[C@H](CC(N)=O)NC(=O)OCc1ccccc1", "result": "<0.05 µM"}
{"smiles": "Cc1c(O)cccc1C(=O)N[C@@H](Cc1ccccc1)C(=O)N(O)CC(=O)N1CCC[C@@H]1C(=O)NC(C)(C)C", "method": "HPLC", "result": "2.07 µM"}
{"smiles": "NC(=O)C[C@H](NC(=O)c1ccc2ccccc2n1)C(=O)N[C@@H](Cc1ccccc1)[C@@H](O)CN1CCC[C@H]1C(F)(F)F", "result": "0.001 µM"}
{"smiles": "O=C1C(C/C=C/c2ccccc2)(C/C=C/c2ccccc2)[C@@H]2COC[C@H]2C1(C/C=C/c1ccccc1)C/C=C/c1ccccc1", "result": "70–100 µM"}